Compound potency records, mixed from different reports. Data source: NIAID ChemDB in PubChem.

Shared fields: tests in culture; species: HIV-1; cell line: MT-2; read-out: EC50

ECn is the concentration giving n% inhibition of infection, replication or growth. An empty or dashed field is not shown. Lines come from different laboratories, so protocols vary.

C[C@@H]1O[C@](/C=C/C2CC2)(C(F)(F)F)c2cc(F)ccc2NC1=O ; strain or isolate: RF ; value: <0.0076 µM
CC(C)C1=C2[C@H]3CC[C@@H]4[C@@]5(C)CC[C@H](OC(=O)[C@H]6C[C@@H](C(=O)O)C6(C)C)C(C)(C)[C@@H]5CC[C@@]4(C)[C@]3(C)CC[C@@]2([C@@H](O)CNC(=O)C(CN)NC(=O)c2ccc(Cl)cc2)CC1=O ; strain or isolate: 92HT599 ; read by: p24 / ELISA ; value: <1 µM
Nc1nc2c(ncn2[C@H]2C=C[C@@H](CO)C2)c(=O)[nH]1 ; value: 0.4 µM
COc1cc(Cl)ccc1OCCN(C)c1ccc(-c2cnc(C)c([C@H](OC(C)(C)C)C(=O)O)c2N2CCC(C)(C)CC2)nc1 ; strain or isolate: NL4-3 ; read by: luminescence ; value: 0.0016 µM
Cc1nc(Cl)c([C@H](OC(C)(C)C)C(=O)O)c(N2CCC(C)(C)CC2)c1-c1ccc2c(c1)CCN(c1nccc(N3CCC(C(C)(C)O)CC3)n1)C2 ; strain or isolate: NL4-3 ; read by: luciferase ; value: 0.008 µM
CCCCOc1nc(N)nc2c1ncn2[C@H]1C=C[C@@H](CO)C1 ; strain or isolate: IIIB ; read by: cytopathic effect / XTT ; value: 5.21 µM
CC(C)(C#Cc1ccc2c(=O)n(-c3ccc(Cl)c4c(NS(=O)(=O)C5CC5)nn(CC(F)F)c34)c([C@H](Cc3cc(F)cc(F)c3)NC(=O)Cn3nc(C(F)F)c4c3C(F)(F)[C@@H]3C[C@H]43)nc2c1)S(C)(=O)=O ; strain or isolate: NL4-3 ; read by: luciferase ; value: 0.000047 µM
CCCOc1nc(N)nc2c1ncn2[C@H]1C=C[C@@H](CO)C1 ; strain or isolate: IIIB ; read by: cytopathic effect / XTT ; value: 5.88 µM
C=C[C@@]1(CO)C=C[C@H](n2cc(C)c(=O)[nH]c2=O)O1 ; strain or isolate: IIIB ; read by: cytopathic effect ; value: >100 µM
Nc1ncnc2c1ncn2[C@@H]1O[C@H](OCP(=O)(O)O)C=C1F ; strain or isolate: WT ; read by: cytopathic effect ; value: 12.3 µM
CCNc1nc(N)nc2c1ncn2[C@H]1C=C[C@@H](CO)C1 ; strain or isolate: IIIB ; read by: cytopathic effect / XTT ; value: 11.8 µM
CC(C)C#C[C@]1(C(F)(F)F)OCC(=O)Nc2ccc(Cl)cc21 ; strain or isolate: RF ; value: <0.0097 µM
CC(C)C1=C2[C@H]3CC[C@@H]4[C@@]5(C)CC[C@H](OC(=O)[C@H]6C[C@@H](C(=O)O)C6(C)C)C(C)(C)[C@@H]5CC[C@@]4(C)[C@]3(C)CC[C@@]2([C@@H](O)CNC(=O)C(C)(C)NC(=O)c2ccc(Cl)c(Cl)c2)CC1=O ; strain or isolate: 92HT599 ; read by: p24 / ELISA ; value: <1 µM
Cc1ncc(-c2ccc(O[C@@H](C)COc3ccccc3)nc2)c(N2CCC(C)(C)CC2)c1[C@H](OC(C)(C)C)C(=O)O ; strain or isolate: NL4-3 ; read by: luminescence ; value: 0.0035 µM
Cc1cn(-c2ccc(C(=O)NC(C)(C)CNCC[C@@]34CC[C@]5(C)[C@H](CC[C@@H]6[C@@]7(C)CC[C@H](OC(=O)[C@H]8C[C@@H](C(=O)O)C8(C)C)C(C)(C)[C@@H]7CC[C@]65C)C3=C(C(C)C)C(=O)C4)cc2)cn1 ; strain or isolate: 92HT599 ; read by: p24 / ELISA ; value: <1 µM
O=C1CO[C@](C#CC2CC2)(C(F)(F)F)c2cc(Cl)ccc2N1 ; strain or isolate: RF ; value: <0.0091 µM
C=CCOc1nc(N)nc2c1ncn2[C@H]1C=C[C@@H](CO)C1 ; strain or isolate: IIIB ; read by: cytopathic effect / XTT ; value: 5.42 µM
C[C@H]1O[C@](C#CC2CC2)(C(F)(F)F)c2cc(F)ccc2NC1=O ; strain or isolate: RF ; value: <0.194 µM
CC(C)C1=C2[C@H]3CC[C@@H]4[C@@]5(C)CC[C@H](OC(=O)[C@H]6C[C@@H](C(=O)O)C6(C)C)C(C)(C)[C@@H]5CC[C@@]4(C)[C@]3(C)CC[C@@]2(CC(=O)NC[C@H](C)NC(=O)c2ccc(Cl)cc2)CC1=O ; strain or isolate: 92HT599 ; read by: p24 / ELISA ; value: <1 µM
CNC(=O)NC[C@H]1O[C@@H](n2cnc3c(NC(=O)Nc4ccccc4)ncnc32)[C@H](O)[C@@H]1CC(=O)O ; strain or isolate: LAI ; read by: cytopathic effect / neutral red ; value: >98 µM
Cc1nnc(-c2ccc3c(=O)n(-c4ccc(Cl)c5c(NS(C)(=O)=O)nn(CC(F)(F)F)c45)c([C@H](Cc4cc(F)cc(F)c4)NC(=O)Cn4nc(C(F)F)c5c4C(F)(F)[C@@H]4C[C@H]54)nc3c2)nc1C ; strain or isolate: NL4-3 ; read by: luciferase ; value: 0.00004 µM
CC(C)C1=C2[C@H]3CC[C@@H]4[C@@]5(C)CC[C@H](OC(=O)[C@H]6C[C@@H](C(=O)O)C6(C)C)C(C)(C)[C@@H]5CC[C@@]4(C)[C@]3(C)CC[C@@]2([C@@H](O)CNC(=O)c2ccc(N3CCCCC3)cc2)CC1=O ; strain or isolate: 92HT599 ; read by: p24 / ELISA ; value: <1 µM
CC[C@@H]1O[C@](/C=C/C2CC2)(C(F)(F)F)c2cc(F)ccc2NC1=O ; strain or isolate: RF ; value: <0.0025 µM
Cc1ncc(-c2cnc(OC3Cc4ccccc4C3)c(F)c2)c(N2CCC(C)(C)CC2)c1[C@H](OC(C)(C)C)C(=O)O ; strain or isolate: NL4-3 ; read by: luminescence ; value: 0.0061 µM
[N-]=[N+]=NC[C@H]1O[C@@H](n2cnc3c(NC(=O)Nc4ccccc4)ncnc32)[C@H](O)[C@@H]1CC(=O)O ; strain or isolate: LAI ; read by: cytopathic effect / neutral red ; value: >149 µM
CC[C@H]1O[C@](C#CC2CC2)(C(F)(F)F)c2cc(F)ccc2NC1=O ; strain or isolate: RF ; value: <0.0874 µM
Cc1cc(Cl)ccc1OCCOc1ccc(-c2cnc(C)c([C@H](OC(C)(C)C)C(=O)O)c2N2CCC(C)(C)CC2)nc1 ; strain or isolate: NL4-3 ; read by: luminescence ; value: 0.0022 µM
C=CSC(NC(=O)[C@H](Cc1ccccc1)NS(=O)(=O)N1CCOCC1)C(=O)N[C@@H](CC1CCCCC1)[C@@H](O)C[C@H](C(=O)NCCCC)C(C)C ; strain or isolate: IIIB ; read by: cytopathic effect / XTT ; value: >13 µM
Cc1nc2cc3nn2c(c1[C@H](OC(C)(C)C)C(=O)O)N1CCC(C)(CC1)O/C=C\COc1ccc(F)cc1-c1cccc-3c1 ; strain or isolate: NL4-3 ; conditions: 10% FBS ; value: 0.007 µM
Cc1nc(CN2CCC3(CCC3)CC2)c(-c2ccc3c(c2)CCN(c2nccc(-c4cccnc4)n2)C3)c(N2CCC(C)(C)CC2)c1[C@H](OC(C)(C)C)C(=O)O ; strain or isolate: NL4-3 ; read by: luciferase ; value: 0.01 µM
CC(=O)N[C@@H](Cc1cccc2ccccc12)C(=O)N[C@H](C(=O)N[C@@H](CC(C)C)[C@@H](O)CC(=O)N[C@@H](CC(C)C)C(=O)N[C@@H](Cc1ccccc1)C(N)=O)C(C)C ; value: 4.12 µM
Cc1nc2cc3nn2c(c1[C@H](OC(C)(C)C)C(=O)O)-c1ccc2c(c1Cl)N(C/C=C\CCc1cccc(c1)-c1cccc-3c1)CCO2 ; strain or isolate: NL4-3 ; conditions: 10% FBS ; value: 0.125 µM
C[C@@H]1O[C@](/C=C/C2CC2)(C(F)(F)F)c2cc(Cl)ccc2NC1=O ; strain or isolate: RF ; value: <0.0025 µM
CCOC(=O)C[C@H]1[C@@H](O[Si](C)(C)C(C)(C)C)[C@H](n2cnc3c(NC(=O)Nc4ccccc4)ncnc32)O[C@@H]1CNC(=O)NC ; strain or isolate: LAI ; read by: cytopathic effect / neutral red ; value: >13 µM
CC(C)C1=C2[C@H]3CC[C@@H]4[C@@]5(C)CC[C@H](OC(=O)[C@H]6C[C@@H](C(=O)O)C6(C)C)C(C)(C)[C@@H]5CC[C@@]4(C)[C@]3(C)CC[C@@]2([C@@H](O)CNC(=O)c2ncccn2)CC1=O ; strain or isolate: 92HT599 ; read by: p24 / ELISA ; value: <1 µM
Cc1ncc(-c2ccc(OCCCF)cn2)c(N2CCC(C)(C)CC2)c1[C@H](OC(C)(C)C)C(=O)O ; strain or isolate: NL4-3 ; read by: luminescence ; value: 0.0039 µM
CC(C)C1=C2[C@H]3CC[C@@H]4[C@@]5(C)CC[C@H](OC(=O)[C@H]6C[C@@H](C(=O)O)C6(C)C)C(C)(C)[C@@H]5CC[C@@]4(C)[C@]3(C)CC[C@@]2(CC(=O)NCC(C)(C)NC(=O)c2ncccn2)CC1=O ; strain or isolate: 92HT599 ; read by: p24 / ELISA ; value: <1 µM
Nc1nc2c(ncn2[C@H]2C=C[C@@H](CO)C2)c(=O)[nH]1 ; strain or isolate: IIIB ; read by: cytopathic effect / XTT ; value: 0.45 µM
CCNc1cc(N2CCc3cc(-c4c(C)nc(C)c([C@H](OC(C)(C)C)C(=O)O)c4N4CCC(C)(C)CC4)ccc3C2)ncn1 ; strain or isolate: NL4-3 ; read by: luciferase ; value: 0.005 µM
COc1cc(Cl)ccc1OCCNc1ccc(-c2cnc(C)c([C@H](OC(C)(C)C)C(=O)O)c2N2CCC(C)(C)CC2)cn1 ; strain or isolate: NL4-3 ; read by: luminescence ; value: 0.004 µM

The first 3 rows once more:

smiles | strain or isolate | read by | conditions | value
C[C@@H]1O[C@](/C=C/C2CC2)(C(F)(F)F)c2cc(F)ccc2NC1=O | RF |  |  | <0.0076 µM
CC(C)C1=C2[C@H]3CC[C@@H]4[C@@]5(C)CC[C@H](OC(=O)[C@H]6C[C@@H](C(=O)O)C6(C)C)C(C)(C)[C@@H]5CC[C@@]4(C)[C@]3(C)CC[C@@]2([C@@H](O)CNC(=O)C(CN)NC(=O)c2ccc(Cl)cc2)CC1=O | 92HT599 | p24 / ELISA |  | <1 µM
Nc1nc2c(ncn2[C@H]2C=C[C@@H](CO)C2)c(=O)[nH]1 |  |  |  | 0.4 µM